For one substance, Km and kcat results are on record in article PMC12576825.

For one series, the system named is C=CC(CC)(C(=O)O)C(=O)O. As to the kind of experiment: purified protein. The following applies: mutant printed as ICPLLG.
The next series relates to C=CC(C)(C(=O)O)C(=O)O. The series can be described thus: purified protein. Conditions: mutant printed as ICPLLG.

With “arylmalonate decarboxylase (AMDase) (Bordetella bronchiseptica; A125P/C188G/G74C/M159L/V156L/V43I)”, in the series on C=CC(CC)(C(=O)O)C(=O)O, the Km (usually the concentration of substrate that gives half-maximal velocity) amounted to 160 ± 20 µM and the kcat (usually the maximal rate divided by the concentration of active sites) stood at 0.0050 ± 0.0003 s⁻¹. Also, in the series with C=CC(C)(C(=O)O)C(=O)O, the Km was 110 ± 20 µM and the kcat stood at 0.023 ± 0.001 s⁻¹.
